What follows is the remainder of the data, with few or none of the hits. Records with an inconclusive call do not appear. Active and inactive are the calls of the source. Calls follow the shape of the dose curve; as a rule, active = well fitted inhibition curve with a large enough effect; inconclusive = small, poorly fitted or top-dose-only effect; inactive = no such curve, though single readings can be large or run the other way.

1 compound from PubChem BioAssay AID720541 (National Center for Advancing Translational Sciences (NCATS), 2013) can be followed below.
% is scaled to controls: 0 for no effect and ±100 for the full control effect.

The test deals with C-terminal-binding protein 1 (Homo sapiens) (UniProt Q13363). The experiment in a line: qHTS for Inhibitors of the Phosphatase Activity of Eya2: Carboxyl-terminal binding protein (CtBP) Counterscreen for Cherry-picked Compounds. Also: nearly all actives have a fitted effect of over 65% in size. The note with it: purified protein-protein binding, AlphaScreen, 3 h; at 46.1 µM (top of the series). An excerpt: The Eya protein family is an essential co-activator of the Six1 transcription factor. Six1 is a developmental gene that is abnormally re-expressed in a large percentage of breast cancers. This over-expression plays a causal role in the initiation and metastatic development of breast cancers. The Eya family of protein is also found to contain a unique HAD phosphatase domain with protein tyrosine phosphatase activity which can potentially play a role in Six1-mediated breast tumorigenesis. Recently, Eya2 is found to dephosphorylate the histone variant H2AX and direct cells towards DNA repair instead of apoptosis in the event of DNA damage.
A 1536 well format, fluorescence based qHTS assay was developed and used to target the phosphatase activity of Eya2 (AID 488837). In addition, a CtBP counterscreen was developed using the AlphaScreen technology to evaluate compound selectivity to target […]. The data herein reports the activity of the cherry-picked compounds against the CtBP AlphaScreen. Compounds that are active or have > 100 fold selectivity vs. the Eya2 activity were excluded for further characterization. […]
Four microliters of reagent (25 nM GST-E1A, 25 nM CtBP-6x HIS) was dispensed in a 1536 well Greiner plates. […] The AlphaScreen signal was obtained using the PerkinElmer EnVision plate reader using the 680 nm excitation and 520 - 620 nm emission filters. […]
For orientation: qHTS replaces the single test concentration by a dilution series.
As to `[Cl][V][Cl].c1cc[cH-]c1.c1cc[cH-]c1`, the activity change, negative = inhibition was inactive: 10.3%.
